Values of other authors as cited in PMC7894237 (Inflammation Research, 2021).

Tests used:
[1] = tested on: patients with MERS infection; conditions: human, in vivo
MERS-CoV [2] = tested on: MERS-CoV
MERS-CoV [3] = conditions: mouse, in vivo
[4] = tested on: SARS-CoV1 replication in Vero cells
[5] = tested on: SARS-CoV1 replication in Vero cells; remark: listed apart in the source

Molecule	therapeutic effect [1]	potency as inhibitor of MERS-CoV infection (MERS-CoV [2])	potency as inhibitor of SARS-CoV1 infection (SARS-CoV1)	also measured
IFN α-2a: interferon subtype	inconclusive			
IFN α-2b: interferon subtype	inconclusive			
IFNβ-1a: interferon beta subtype		more potent inhibitor	more potent inhibitor	
IFNβ-1b: interferon beta subtype		more potent inhibitor	more potent inhibitor	
IFN-β: type I interferon (protein, UniProt P01574 22-187, looked up) Interferon beta: MSYNLLGFLQRSSNFQCQKLLWQLNGRLEYCLKDRMNFDIPEEIKQLQQFQKEDAALTIYEMLQNIFAIFRQDSSSTGWNETIVENLLANVYHQINHLKTVLEEKLEKEDFTRGKLMSSLHLKRYYGRILHYLKAKEYSHCAWTIVRVEILRNFYFINRLTGYLRN	inconclusive			therapeutic effect (MERS-CoV [3]): improved respiratory function, but did not markedly reduce virus replication or lung pathology severity; effect on SARS-CoV1 replication [4]: may act synergistically; sensitivity of SARS-CoV1 to the interferon [4]: moderately sensitive; effect on SARS-CoV1 replication [5]: inhibited synergistically

Like-named read-outs stand apart in the source and are kept apart here.
